A mixed list of measured activities; the numbers were collected in NIAID ChemDB.

Shared fields: tests in culture; species: Herpes simplex virus 1

Rows are shuffled and stem from different studies. An empty or dashed field is not shown. ECn is the concentration giving n% inhibition of infection, replication or growth. Percent inhibition refers to the dose given; in toxicity tests it is the harm to the cells.

smiles,method,endpoint,cell line,strain,tested at,value
O=C(O)P(=O)(O)O,plaque count,inhibition,SIRC,V8523,500 µM,>99.9%
Nc1nc(=O)n([C@@H]2O[C@H](CO)[C@@H](O)[C@@H]2F)cc1I,cytopathic effect,EC50,HEL,KOS GCV-resistant,,7.35 µg/mL
CCOC(=O)P(=O)(OC)OC[C@H]1O[C@@H](n2cc(CCCl)c(=O)[nH]c2=O)C[C@@H]1O,cytopathic effect,inhibition,VERO,BRAND,0.7 µM,>25%
O=C(O)CP(=O)(O)O,plaque count,inhibition,SIRC,11-Aug,500 µM,>99.9%
COC(=O)P(=O)(O)OC[C@H]1O[C@@H](n2cc(CCCl)c(=O)[nH]c2=O)C[C@@H]1O,cytopathic effect,inhibition,VERO,BRAND,24.2 µM,>25%
Nc1nc2c(ncn2COC(CO)CO)c(=O)[nH]1,cytopathic effect,EC50,HEL,KOS GCV-resistant,,0.63 µg/mL
O=C(O)CP(=O)(O)O,cytopathic effect,inhibition,VERO,BRAND,71.4 µM,>25%
Nc1ncnc2c1ncn2CCOCP(=O)(O)O,cytopathic effect,EC50,HEL,KOS,,11.6 µg/mL
O=C(OCc1ccccc1)P(=O)(O)OC[C@H]1O[C@@H](n2cc(CCCl)c(=O)[nH]c2=O)C[C@@H]1O,cytopathic effect,inhibition,VERO,BRAND,20.5 µM,>25%
NC1C=CC(CC[C@H](N)C(=O)O)C=C1,cytopathic effect,EC50,HeLa,KOS,,>200 µg/mL
CCOC(=O)P(=O)(O)OCCOCn1cnc2c(=O)[nH]c(N)nc21,cytopathic effect,EC95,VERO,L2,,661 µM
CC1=C\[C@H](O)CC(=O)Cc2nc(co2)C(=O)N2CCC=C2C(=O)O[C@@H](C(C)C)[C@@H](C)/C=C/C(=O)NC\C=C\1,cytopathic effect,EC50,HeLa,KOS,,>200 µg/mL
Nc1ncnc2c1ncn2[C@@H]1O[C@H](CO)[C@@H](O)[C@@H]1O,cytopathic effect,EC50,HEL,KOS PFA-resistant,,11.3 µg/mL
O=C(O)CP(=O)(O)OC[C@H]1O[C@@H](n2cc(CCCl)c(=O)[nH]c2=O)C[C@@H]1O,cytopathic effect,inhibition,VERO,BRAND,2.3 µM,>25%
CN1[C@@H]2CC[C@H]1CC(OC(=O)C(CO)c1ccccc1)C2,cytopathic effect,EC50,HeLa,KOS,,0.5 µM
COC(=O)[C@H]1[C@H](O)[C@@H](C)[C@@H](O)[C@](C)(O)/C=C(\C)C2=C3C(=C(C)C(=O)c4c(O)c(c(C)c(OC(C)=O)c43)NC(=O)/C(C)=C/C=C\[C@@H](C)C(O)[C@@H](C)[C@H]1O)OCO2,plaque count,inhibition,CV,,26 µM,76.7%
Nc1ncnc2c1ncn2C[C@@H](CO)OCP(=O)(O)O,cytopathic effect,EC50,HEL,KOS,,0.11 µg/mL
Nc1nc2c(ncn2COCCO)c(=O)[nH]1,cytopathic effect,inhibition,VERO,BRAND,0.01 µM,>25%

Again, the opening 2 rows:

smiles,method,endpoint,cell line,strain,tested at,value
O=C(O)P(=O)(O)O,plaque count,inhibition,SIRC,V8523,500 µM,>99.9%
Nc1nc(=O)n([C@@H]2O[C@H](CO)[C@@H](O)[C@@H]2F)cc1I,cytopathic effect,EC50,HEL,KOS GCV-resistant,,7.35 µg/mL